Test results from article PMC2928791 (2010).

Biological target: PV non-structural protein 2C^ATPase (wt) (poliovirus (PV; the paper's PV is type 1 Mahoney, PVM)) (UniProt P03300)
Assay: co-IP

## CAV20 structural protein VP3 (wt) (natural protein)
  percent of the level in the CAV20 2C^ATPase and CAV20 VP3 Co-IP reaction: 32%
